Compound potency records, mixed from different reports. Data source: NIAID ChemDB in PubChem.

Shared fields: tests in culture; agent: Mycobacterium tuberculosis

MIC bound: limit read from a one-dose screen. ECn is the concentration giving n% inhibition of infection, replication or growth. Inhibition is in % at the dose shown (toxicity tests: loss of growth or viability). MIC50, MIC90 and the like: level of inhibition, or share of isolates inhibited. Two numbers with a dash give a range or band. Lines come from different laboratories, so protocols vary. An empty or dashed field is not shown.

compound | measure | setting | read by | dose | strain | cells | value
C=CCNCCNC1(C)CN(CC(CC)CCCC)CN(CC(CC)CCCC)C1 | MIC | - | - | - | - | - | 12.5 µM
CCCCCCC1(C)SC(=O)C(C)=C1O | MIC | - | - | - | H37Rv | - | >1000 µM
Cc1ccc(NC(=S)NNC(=O)Cc2csc3nc(-c4ccc(Br)cc4)cn23)cc1 | inhibition | - | - | 6.25 µg/mL | H37Rv | - | 1%
CCOC(=O)n1[nH][nH]c2c(c(=O)n(C)c(=O)n2C)n1C(=O)OCC | MIC | - | BACTEC | - | H37Rv | - | 128 µg/mL
CCC[C@@H](O)C1=C[C@@H](OC(C)C)O[C@H](COC(=O)C(C)(C)C)C1=O | MIC90 | - | broth dilution | - | - | - | 73 µg/mL
CCCCCCOc1ccc(NC(=O)OCCC[NH+]2CCCCC2)cc1 | MIC | - | - | - | My 331/88 | - | 16 µM
Cc1csc(N2C(=O)c3cccc4cccc(c34)C2=O)n1 | inhibition | - | resazurin | 6.25 µg/mL | H37Rv | - | -18%
CCCCCOc1ccc(NC(=O)OCCC[NH+]2CCCCC2)cc1 | MIC | - | - | - | My 331/88 | - | 32 µM
O=C1S/C(=C2/C(=O)N(CN3CCCCC3)c3ccccc32)C(=O)N1CN1CCCCC1 | MIC bound | - | BACTEC | - | H37Rv | - | >12.5 µg/mL
CCN1C(=O)CS/C1=N\NC(=O)Cc1csc2nc(-c3ccc(Br)cc3)cn12 | inhibition | - | - | 6.25 µg/mL | H37Rv | - | 0%
C/C(=N\N=C(/[Se])N1CCN(c2ccc(F)cc2)CC1)c1ccccn1 | inhibition | - | BACTEC | 12.5 µg/mL | H37Rv | - | 99.5%
O=C(Cc1csc2nc(-c3ccc(Br)cc3)cn12)N/N=C1\SCC(=O)N1c1ccc([N+](=O)[O-])cc1 | inhibition | - | - | 6.25 µg/mL | H37Rv | - | 37%
Cc1cc(C(N)=O)c(C(N)=O)c(=O)[nH]1 | MIC | - | BACTEC | - | H37Rv | - | ≥12.5 µg/mL
CC(C)c1ccc2c(c1)CC[C@H]1[C@](C)(CNCCNCc3ccccc3F)CCC[C@]21C | MIC | - | - | - | - | - | 12.5 µM
COC(=O)/C1=C/c2c([nH]c3ccc(F)cc23)/C(C(=O)OC)=C\c2c1[nH]c1ccc(F)cc21 | EC50 | - | resazurin / absorbance | - | H37Rv | - | 1.68 µM
CC1(C)C=Cc2c(ccc3c(=O)c(-c4ccccc4)coc23)O1 | inhibition | - | BACTEC | 12.5 µg/mL | H37Rv | - | -19%
C#CCCCCCCCCC/C=C1\C(=O)O[C@@H](C)[C@H]1O | MIC90 | - | broth dilution | - | - | - | 10.16 µg/mL
C/C=C(/C)C(=O)OC1CC(C)(C)CC2C3=CCC4C5(C)CC[C@H](OC(C)=O)C(C)(C)C5CC[C@@]4(C)[C@]3(C)CC[C@@]12C(=O)O | MIC | - | - | - | H37Rv (isoniazid-resistant) | - | 25 µg/mL
Cc1ccc(C(=S)Nc2ccc(Cl)cc2)cc1 | MIC | - | - | - | H37Rv | - | 187.5 µM
c1ccc(C(CCNCCN2CCCC3CCCCC32)c2ccccc2)cc1 | MIC | - | - | - | - | - | 12.5 µM
CCN(CC)CCNc1ccc(CO)c2sc3ccccc3c(=O)c12 | MIC bound | - | BACTEC | - | H37Rv | - | ≤12.5 µg/mL
CCCN1C(=O)CS/C1=N\NC(=O)Cc1csc2nc(-c3ccc(Br)cc3)cn12 | MIC | - | - | - | H37Rv | - | >6.25 µg/mL
COc1ccc(NC(=S)c2ccc(Cl)cc2)cc1 | MIC | - | - | - | H37Rv | - | 61.9 µM
CCCCCCCCCCCCOc1ccccc1NC(=O)OCCC[NH+]1CCCCC1 | MIC | - | - | - | My 331/88 | - | 16 µM
Cc1ccc(C(=S)Nc2ccc(Cl)c(Cl)c2)cc1 | MIC | - | - | - | H37Rv | - | 15 µM
CCC(=O)C(N)(O)C(=O)O | MIC90 | - | broth dilution | - | - | - | 0.21 µg/mL
CCOc1ccc2c(NN)cc(C)nc2c1 | MIC | - | - | - | H37Rv | VERO | 12.5 µg/mL
COc1ccc(C(=S)Nc2ccc(Br)cc2)cc1 | MIC | - | - | - | H37Rv | - | 2000 µM
COc1ccc(NC(N)=S)cc1 | MIC | - | - | - | A67 | - | 500 µM
Nc1ncnc2c1ncn2[C@@H]1O[C@H](COP(=O)(O)OC(=O)NS(=O)(=O)NC(=O)c2ccccc2O)[C@@H](O)[C@H]1O | MIC90 | - | broth dilution | - | - | - | 0.13 µg/mL
CC1=C(O)C(C)SC1=O | MIC | - | - | - | H37Rv | - | 500 µM
O=C(NNC(=O)c1ccc(Cl)cc1Cl)c1ccc2ccccc2c1 | inhibition | - | BACTEC | 12.5 µg/mL | H37Rv | - | 4%
COc1cccc(NC(=O)OCCC[NH+]2CCCCC2)c1 | MIC | - | - | - | My 331/88 | - | 250 µM
Cc1ccc(C(=S)Nc2ccc(C3CCCCC3)cc2)cc1 | MIC | - | - | - | H37Rv | - | 31 µM
Cc1c(N)nc([C@H](CC(N)=O)NC[C@H](N)C(N)=O)nc1C(=O)N[C@H](C(=O)N[C@H](C)[C@@H](O)[C@H](C)C(=O)N[C@H](C(=O)NCCc1nc(-c2nc(C(=O)NCCC[S+](C)C)cs2)cs1)[C@@H](C)O)C(O[C@@H]1O[C@@H](CO)[C@@H](O)[C@H](O)[C@@H]1O[C@H]1O[C@H](CO)[C@@H](O)[C@H](OC(N)=O)[C@@H]1O)c1cnc[nH]1 | EC50 | - | broth dilution | - | - | - | 0.1 µg/mL
CCCCC(CC)CN1CN(CC(CC)CCCC)CC(C)(NCCN[C@H]2C[C@@H]2c2ccccc2)C1 | MIC | - | - | - | - | - | 50 µM
CCCC[N+]12CC=C3COC(=O)C(C)(O)C(C)(O)C(C)C(=O)OC(CC1)C32.[Br-] | inhibition | - | BACTEC | 12.5 µg/mL | H37Rv | - | 13%
O=C(O)C(CCC1CCCCC1)C(=O)O | MIC90 | - | broth dilution | - | - | - | 14.7 µg/mL
CCOC(=O)c1ccccc1NC(N)=S | MIC | - | - | - | A67 | - | 500 µM
O=C1OC2(C(F)(F)F)Oc3ccccc3CN2C12CCCCC2 | inhibition | - | resazurin | 6.25 µg/mL | H37Rv | - | -16%
NC(=S)N/N=C/c1cc(Br)ccc1O | MIC | - | - | - | A67 | - | 250 µM
O=C1C(N=Nc2ccc([N+](=O)[O-])cc2)Sc2nc3ccccc3n21 | inhibition | - | BACTEC | 12.5 µg/mL | H37Rv | - | 38%
C(=C\c1ccccc1)/CNc1ccccc1Cn1ccnc1 | MIC | - | - | - | B814 | - | 2 µg/mL
COc1ccc2ccccc2c1/C=N/Nc1cc(C)nc2cc(Cl)ccc12 | inhibition | - | - | 12.5 µg/mL | H37Rv | VERO | 100%
c1cnc2c(c1)ccc1ncccc12 | MIC bound | - | BACTEC | - | H37Rv | - | >12.5 µg/mL
COc1ccc(NC(=O)OCCC[NH+]2CCCCC2)cc1 | MIC | - | - | - | My 331/88 | - | 1000 µM
CCN(CC)CCOC(=O)c1ccc2cccnc2c1O | MIC50 | - | - | - | H37Rv | - | >10 µg/mL
NC(=S)Nc1ccc(N)cc1 | MIC | - | - | - | A67 | - | 500 µM
CC(C)=CCC/C(C)=C/CNCCNCCNc1ccccc1 | MIC | - | - | - | - | - | 50 µM
C(=C\c1ccccc1)/CNc1ccc(Cn2ccnc2)cc1 | MIC | - | - | - | 103471 | - | 1 µg/mL
COc1ccc(C(=S)Nc2ccc(Cl)cc2)cc1 | MIC | - | - | - | H37Rv | - | 2000 µM
CN1CCN(Cc2ccccc2NC/C=C/c2ccccc2)CC1 | MIC | - | - | - | 6425 | - | 32 µg/mL
S=C(Nc1ccc(Br)cc1)c1ccccc1 | MIC | - | - | - | H37Rv | - | 15 µM
CCCCCCCCCCCCC1(C)SC(=O)C(C)=C1O | MIC | - | - | - | H37Rv | - | 500 µM
Cc1ccc2cccc(O)c2n1 | MIC50 | - | - | - | H37Rv | - | >10 µg/mL
CC(=O)C(N=Nc1ccc(S(=O)(=O)Nc2nncs2)cc1)C(=O)Nc1ccccc1C | inhibition | - | resazurin | 6.25 µg/mL | H37Rv | - | 2%
CCCCC(CC)CN1CN(CC(CC)CCCC)CC(C)(NCCNCCCOCC)C1 | MIC | - | - | - | - | - | 12.5 µM
CC(C)=CCC/C(C)=C/CC/C(C)=C/C1(C)SC(=O)C(C)=C1O | MIC | - | - | - | H37Rv | - | >1000 µM
C[n+]1ccc(Nc2ccc(NC(=O)c3ccc(Nc4cc[n+](C)c5ccc([N+](=O)[O-])cc45)cc3[N+](=O)[O-])cc2)cc1 | MIC | - | - | - | H37Rv | VERO | 1.56 µg/mL
O=C(Cc1csc2nc(-c3ccc(Br)cc3)cn12)NNC(=S)Nc1ccc([N+](=O)[O-])cc1 | MIC | - | - | - | H37Rv | - | >6.25 µg/mL
CC(O)c1nc(C(N)=O)cs1 | MIC bound | - | BACTEC | - | H37Rv | - | >12.5 µg/mL
C(=C\c1ccccc1)/CNc1cccc(Cn2ccnc2)c1 | MIC | - | - | - | 6425 | - | 4 µg/mL
Cc1cc(=O)[nH]c2ccccc12 | MIC50 | - | - | - | M 607 | - | >25 µg/mL
CCN(CC)c1ccc(/C=N/Nc2ccnc3cc(Cl)ccc23)cc1 | MIC | - | - | - | H37Rv | VERO | 3.13 µg/mL
O=C(O)c1ccc2cccnc2c1O | MIC50 | - | - | - | H37Rv | - | 10 µg/mL
CC(CNCCC(c1ccccc1)c1ccccc1)NC1CCCC(C)C1C | MIC | - | - | - | - | - | 50 µM
O=C1C(=O)c2ccccc2C(O)=C1C1C(=O)c2ccccc2C(=O)C1O | MIC | - | - | - | H37Rv | - | >100 µg/mL
NC(=S)Nc1cccc(C(=O)O)c1 | MIC | - | - | - | A67 | - | 250 µM
COc1ccc(/C=N/Nc2cc(C)nc3cc(Cl)cc(Cl)c23)c2ccccc12 | inhibition | - | - | 12.5 µg/mL | H37Rv | VERO | 53%
Cc1cc(O)c2ncccc2c1 | MIC50 | - | - | - | H37Rv | - | 0.5–1 µg/mL
C(=C\c1ccccc1)/CNc1ccc(CN2CCOCC2)cc1 | MIC | - | - | - | 6425 | - | 32 µg/mL
CCN(CC)c1ccc(/C=N/Nc2cc(C)nc3cc(OC)ccc23)cc1 | inhibition | - | - | 12.5 µg/mL | H37Rv | VERO | 100%
CCCCOc1cccc(NC(=O)OCCC[NH+]2CCCCC2)c1 | MIC | - | - | - | My 331/88 | - | 62.5 µM
N#C/C(=C1\Sc2c(nc[nH]c2=O)N1c1ccccc1)c1nc2ccccc2[nH]1 | MIC bound | - | resazurin | - | H37Rv | - | >6.25 µg/mL
S=C(Nc1ccc(Cl)c(Cl)c1)c1cccc(Br)c1 | MIC | - | - | - | H37Rv | - | 31 µM
CC(=O)Nc1ccc(/C=N/NC(N)=S)cc1 | MBC | - | - | - | Isolate E (drug-resistant) | - | 30 µg/mL
CCCCCC1(C)SC(=O)C(C)=C1O | MIC | - | - | - | H37Rv | - | 1000 µM
COc1cc(O)cc2c1C(=O)C(C)O2 | MIC bound | - | BACTEC | - | H37Rv | - | >12.5 µg/mL
C=C(C)CC1(C)SC(=O)C(C)=C1O | MIC | - | - | - | H37Rv | - | >1000 µM
O=C(N/N=C/c1ccc(O)cc1)C(c1ccccc1)N1CCCCC1 | MIC bound | - | BACTEC | - | H37Rv | - | >12.5 µg/mL
COc1ccc2c(N/N=C/c3ccc4c(c3)OCO4)cc(C)nc2c1 | MIC | inside macrophages | - | - | H37Rv | - | 6.25 µg/mL
CC(=O)Nc1ccc2cc(-c3ccc(Cl)cc3)c3nnnn3c2n1 | MIC bound | - | BACTEC | - | H37Rv | - | >12.5 µg/mL
CCCOc1ccc(NC(=O)OCCC[NH+]2CCCCC2)cc1 | MIC | - | - | - | My 331/88 | - | 125 µM
C=C[C@]1(C)C=C2C(=C)C3(C)OC[C@@]4(CCCC(C)(C)C34)[C@@]2(O)[C@H](O)C1 | MIC90 | - | broth dilution | - | - | - | 3.1 µg/mL
CC1COc2c(N3CCN(C)CC3)c(F)cc3c(=O)c(C(=O)O)cn1c23 | MIC | - | - | - | 001-010 (drug-resistant) | - | 0.75 µg/mL
Cc1cc(O)c2c(c1)C(=O)C(c1c(C)cc3c(c1O)C(=O)C=CC3=O)=CC2=O | MIC | - | - | - | H37Rv | - | 100 µg/mL
Cc1ccc(O)c2ncccc12 | MIC50 | - | - | - | H37Rv | - | 0.5–1 µg/mL
COC(=O)/C1=C/c2c([nH]c3ccc(I)cc23)/C(C(=O)OC)=C\c2c1[nH]c1ccc(I)cc21 | EC50 | - | resazurin / absorbance | - | H37Rv | - | 3.89 µM
CC(C(=O)O)c1ccc(O)c2ncccc12 | MIC50 | - | - | - | M 607 | - | 10 µg/mL
Cc1cc2nc3ccc(N=Nc4ccc(N(C)C)cc4)cc3n(-c3ccccc3)c-2cc1=N | inhibition | - | BACTEC | 12.5 µg/mL | H37Rv | - | 100%
CCOC(=O)c1ccc2cccnc2c1O | MIC50 | - | - | - | M 607 | - | 25 µg/mL
CCCCCCCCCCCCCCC1(C)SC(=O)C(C)=C1O | MIC | - | - | - | H37Rv | - | >1000 µM
CCc1nc2c(O)cccc2cc1C | MIC50 | - | - | - | M 607 | - | 5–10 µg/mL
S=C(Nc1ccc(C2CCCCC2)cc1)c1ccc(Cl)cc1 | MIC | - | - | - | H37Rv | - | 61.9 µM
Cc1cc(/C=N/Nc2ccnc3ccc(C4CCCCC4)cc23)c(C)n1-c1ccccc1 | MIC | - | - | - | H37Rv | VERO | 6.25 µg/mL
C(/C=C/c1ccccc1)=Nc1ccc(Cn2ccnc2)cc1 | MIC | - | - | - | 103471 | - | 16 µg/mL
CC[C@@H](CO)NCCN[C@@H](CC)CO | MIC | - | - | - | H37Rv | - | ≤7.5 µg/mL
C[C@H](O)CNCCNCCC(c1ccccc1)c1ccccc1 | MIC | - | - | - | - | - | 25 µM